# Test results reported in publication PMC11964921 (npj Drug Discovery, 2025).
# Test system: M. tuberculosis H37Rv-ΔcydAB
# Assay type: cell-based
compound,measurement,value
CCc1nc2ccc(Cl)cn2c1C(=O)NCc1ccc(N2CCC(c3ccc(OC(F)(F)F)cc3)CC2)cc1 [Q203],fold more sensitive than M. smegmatis cytochrome bd knockout strain,1000 fold
